Pooled drug test results. Numbers come from NIAID ChemDB, via PubChem.

All rows: growth or infection tests; organism: Mycobacterium tuberculosis

Inhibition is in % at the dose shown (toxicity tests: loss of growth or viability). A number after MIC or MFC names an inhibition level or a share of isolates. Rows are shuffled and stem from different studies. ECn: concentration that inhibits the pathogen or its effect by n%. Blank or dashed fields: not listed here. MIC bound comes from a single tested concentration.

compound,endpoint,dose,read by,strain or isolate,value
CC(/C=C/c1ccccc1)=N\NC(=O)c1ccncc1,MIC,-,resazurin,H37Rv,0.2 µg/mL
Cc1ccc(S(=O)(=O)[C@H]2CS(=O)(=O)C[C@@H]2NCCc2ccccc2)cc1,MIC,-,resazurin,Clinical isolate,>16 µg/mL
CCOC(=O)c1cc(-c2ccccc2)[nH]c1CC(=O)N/N=C/c1c[nH]c2ccccc12,inhibition,6.25 µg/mL,BACTEC,H37Rv,29%
C#CCN1C(=O)c2c(C)cc(C)nc2S1(=O)=O,MIC,-,-,H37Rv,>12.5 µg/mL
CCCCOc1cccc(NC(=O)OCCC[NH+]2CCCCC2)c1,MIC,-,-,My 331/88,32 µM
CCCCNC(=O)CN1C(C(C)=O)=C(O)c2c(C)cc(C)nc2S1(=O)=O,EC50,-,-,H37Rv,>12.5 µg/mL
COc1ccc(C(=O)NNC(N)=S)cc1,MIC,-,-,H37Rv,>100 µg/mL
CCN(CC)CCOc1ccc(-n2c(C)csc2=Nc2ccc(OCC(C)C)cc2)cc1,MIC,-,-,H37Rv,24 µg/mL
O=C(N/N=C(\COc1cccc(Cl)c1)N=Cc1ccncc1)c1ccncc1,MIC,-,-,INH-r,50 µg/mL
O=C(C[n+]1ccccc1)N=N/C(C(=O)Nc1c(Cl)c(O)c2ccccc2c1O)=C1/C(=O)Oc2cc(O)ccc2C1=O.[Cl-],MIC bound,-,BACTEC,H37Rv,>12.5 µg/mL
CCCCCOc1ccc(N=c2scc(C)n2-c2ccc(OCCCCC)cc2)cc1,MIC,-,-,H37Rv,>125 µg/mL
CC(=O)C1=C(O)c2c(C)cc(C)nc2S(=O)(=O)N1,EC50,-,-,H37Rv,>12.5 µg/mL
CCC[CH2][Sn]1([CH2]CCC)[O]C(=O)CN=Cc2c(ccc3ccccc23)[O]1,inhibition,12.5 µg/mL,BACTEC,H37Rv,12%
Cc1cc(C)c2c(=O)n(CO)sc2n1,MIC,-,-,H37Rv,>12.5 µg/mL
CC(=O)O[C@@H]1C[C@H]2O[C@@H]3C=C(C)CC[C@]3(C)[C@]1(C)[C@]21CO1,MIC bound,-,BACTEC,H37Rv,>12.5 µg/mL
CCCCCCCOc1ccc(NC(=O)OCCC[NH+]2CCCCC2)cc1,MIC,-,-,My 331/88,16 µM
C[C@]1(COc2ccc(-c3cc(COc4ccc(Br)cc4)on3)cc2)Cn2cc([N+](=O)[O-])nc2O1,MIC,-,broth dilution / resazurin,H37Rv,0.95 µM
CCOC(=O)c1cc(-c2ccc([N+](=O)[O-])cc2)n(CC(=O)N/N=C/c2ccc(O)c(OCC)c2)c1C,EC50,-,BACTEC,H37Rv,>6.25 µg/mL
COc1cc(C(=O)NNC(N)=S)cc(OC)c1OC,MIC,-,-,H37Rv,>100 µg/mL
Nc1c(-c2nccc(=O)[nH]2)ncn1[C@@H]1O[C@H](CO)[C@@H](O)[C@H]1O,MIC bound,-,BACTEC,H37Rv,>12.5 µg/mL
COc1ccc(C(=O)N/N=C(\N)SCc2cccc(Cl)c2)cc1,MIC,-,-,H37Rv,>100 µg/mL
CCOC(=O)c1cc(-c2ccccc2)n(CC(=O)N/N=C/c2cn(C(C)=O)c3ccccc23)c1C,inhibition,6.25 µg/mL,BACTEC,H37Rv,25%
O=C1c2ccccc2NC2(C(=O)Nc3ccccc32)N1N1CCOCC1,inhibition,6.25 µg/mL,resazurin,H37Rv,9%
COc1ccc(OCC(=O)Nc2nonc2-c2ccc(OC)c(OC)c2)cc1,MIC,-,resazurin,Clinical isolate,4 µg/mL
CCCCOc1ccc(N=c2scc(C)n2-c2ccc(ON(C)C)cc2)cc1,MIC,-,-,H37Rv,>32 µg/mL
O=S(=O)(N=C1C(Cl)=C(Cl)C(=NS(=O)(=O)c2ccccc2)C(Cl)=C1Cl)c1ccccc1,inhibition,12.5 µg/mL,BACTEC,H37Rv,-9%
CCC(C)CCOc1ccc(N=c2scc(C)n2-c2ccc(OCCC(C)CC)cc2)cc1,MIC,-,-,H37Rv,>125 µg/mL
COc1c(N2CCNC(C)C2)c(F)cc2c(=O)c(C(=O)O)cn(C3CC3)c12,MIC,-,broth dilution / resazurin,ss18b non-replicating phase,2.66 µM
CS(=O)(=O)OCCN(CCOS(C)(=O)=O)c1ccc(N=Nc2ccccc2C(=O)O)cc1,MIC bound,-,resazurin,H37Rv,>6.25 µg/mL
C[C@]1(COc2ccc(-n3cc(-c4ccc(F)cc4)nn3)cc2)Cn2cc([N+](=O)[O-])nc2O1,MIC,-,broth dilution / resazurin,ss18b non-replicating phase,4.59 µM
CCOC(=O)c1c(C)c(-c2ccccc2)n(CC(=O)N=Nc2c(O)[nH]c3ccccc23)c1C,inhibition,6.25 µg/mL,BACTEC,H37Rv,2%
Nc1nnc2nc(C(C(=O)c3ccccc3)c3nc4nnc(N)n4[nH]c3=O)c(=O)[nH]n12,MIC bound,-,BACTEC,H37Rv,>12.5 µg/mL
Cc1ccc2nc(C(=O)N/N=C/c3ccc(Oc4ccccc4Cl)cc3)[nH]c2c1,MIC,-,resazurin,H37Rv,3.125 µg/mL
CCCOc1ccc(NC(=O)OCCC[NH+]2CCCCC2)cc1,MIC,-,-,My 331/88,250 µM
Cc1cc(C)c2c(n1)S(=O)(=O)N(CC(=O)NC1CCCCC1)/C(=C(/O)c1ccccc1)C2=O,MIC,-,-,H37Rv,>12.5 µg/mL
COc1cccc2c1C(=O)c1c(O)c3c(c(O)c1C2=O)C[C@@](O)(/C(C)=N/NC(=O)c1ccc(Cl)cc1)C[C@H]3O[C@H]1C[C@H](N)[C@H](O)[C@H](C)O1,MIC,-,-,RMP-R,>12.5 µg/mL
O=C(N/N=C(\COc1ccccc1)N=Cc1cccnc1)c1ccncc1,MIC,-,-,INH-r,50 µg/mL
CCOC(=O)c1cc(-c2ccccc2)n(CC(=O)NN)c1C,EC50,-,BACTEC,H37Rv,>6.25 µg/mL
CO[C@H]1/C=C/O[C@@]2(C)Oc3c(C)c(O)c4c(O)c(c(/C=N/N5CCN(C)CC5)c(O)c4c3C2=O)NC(=O)/C(C)=C\C=C\[C@H](C)[C@H](O)[C@@H](C)[C@@H](O)[C@@H](C)[C@H](OC(C)=O)[C@@H]1C,MIC50,-,-,23 strains (rifampicin-resistant),50 µg/mL
NNC(=O)c1ccncc1,MIC,-,resazurin,H37Rv,0.4 µg/mL
C/C(=N\NC(=O)C(N)=O)c1c(O)cc(C)oc1=O,MIC bound,-,BACTEC,H37Rv,>12.5 µg/mL
COc1cc(C(=O)N/N=C(\N)SCc2cccc(Cl)c2)cc(OC)c1OC,MIC,-,-,H37Rv,>100 µg/mL
Cc1cc(C)c2c(n1)S(=O)(=O)N/C(=C(/O)c1ccccc1)C2=O,MIC,-,-,H37Rv,>12.5 µg/mL
CCOC(=O)c1cc(-c2ccccc2)n(CC(=O)N/N=C/c2ccc[nH]2)c1C,EC50,-,BACTEC,H37Rv,>6.25 µg/mL
COc1cc(-c2nn3c(C(C)(C)C)nnc3s2)cc(OC)c1OC,MIC,-,resazurin,18b,16 µg/mL
Cc1cc(C)c2c(=O)n(CC(O)CNc3ccc4c(c3)OCO4)sc2n1,MIC,-,-,H37Rv,>12.5 µg/mL
C[C@]1(COc2ccc(-n3cc(COc4ccc(C(F)(F)F)cc4)nn3)cc2)Cn2cc([N+](=O)[O-])nc2O1,MIC,-,broth dilution / resazurin,ss18b non-replicating phase,7.76 µM
C=CCS/C(N)=N/NC(=O)c1ccc([N+](=O)[O-])cc1,MIC,-,-,H37Rv,>100 µg/mL
Cc1cc(Oc2ccc(/C=N/NC(=O)c3nc4ccccc4[nH]3)cc2)ccc1Cl,MIC,-,resazurin,H37Rv,3.125 µg/mL
Cc1ccccc1OC/C(N)=N\NC(=O)c1ccncc1,MIC,-,-,H37Rv(ATCC25584),25 µg/mL
CCCCCCCCCC[C@H](C(=O)O)[C@]1(C(=O)O)CCC(=O)O1,MIC,-,BACTEC,H37Rv,≥12.5 µg/mL
C[C@]1(COc2ccc(-c3cc(-c4ccccc4F)on3)cc2)Cn2cc([N+](=O)[O-])nc2O1,MIC,-,broth dilution / resazurin,H37Rv,0.57 µM
COc1cccc(NC(=O)OCCC[NH+]2CCCCC2)c1,MIC,-,-,My 331/88,125 µM
O=C(N/N=C(\COc1ccc([N+](=O)[O-])cc1)N=Cc1cccnc1)c1ccncc1,MIC,-,-,H37Rv(ATCC25584),50 µg/mL
CC1=CC(=O)/C(=C/n2c(=S)[nH]c3ccc([N+](=O)[O-])cc32)C(=O)O1,inhibition,12.5 µg/mL,BACTEC,H37Rv,19%
CO[C@H]1/C=C/O[C@@]2(C)Oc3c(C)c(O)c4c(O)c(c(/C=N/N5CCN(C)CC5)c(O)c4c3C2=O)NC(=O)/C(C)=C\C=C\[C@H](C)[C@H](O)[C@@H](C)[C@@H](O)[C@@H](C)[C@H](OC(C)=O)[C@@H]1C,MIC,-,-,13684,0.05 µg/mL
Cc1ccc2nc(C(=O)N/N=C/c3ccc(Oc4cc(Cl)cc(Cl)c4)cc3)[nH]c2c1,MIC,-,resazurin,H37Rv,12.5 µg/mL
CCCCCOc1ccc(NC(=O)OCCC[NH+]2CCCCC2)cc1,MIC,-,-,My 331/88,32 µM
CC(=O)Nc1ccc(/C=N/NC(=S)NCCCN2CCN(CCCNC(=S)N/N=C/c3ccc(NC(C)=O)cc3)CC2)cc1,MIC bound,-,BACTEC,H37Rv,>12.5 µg/mL
CCCCSC1=C(C#N)C(=O)NC(C)S1,MIC,-,resazurin,18b,8 µg/mL
CCOC(=O)c1cc(-c2ccc(OC)cc2)n(CCC(=O)NN)c1C,inhibition,6.25 µg/mL,BACTEC,H37Rv,0%
O=C1C(=O)c2ccccc2C(O)=C1C(CCc1ccccc1)C1=C(O)c2ccccc2C(=O)C1=O,inhibition,12.8 µg/mL,BACTEC,H37Rv,40%
CC(C)C(=O)N1c2ccccc2OC(=O)C1CC(=O)Nc1ccccc1,MIC,-,resazurin,18b,8 µg/mL
CC(=O)OC1C[C@H]2C(C)(C)C(=O)C=C[C@]2(C)[C@H]2CCC3(C)C(c4ccoc4)C(=O)[C@H]4O[C@]43[C@]12C,inhibition,12.5 µg/mL,BACTEC,H37Rv,0%
COc1ccc(NC(=O)OCCC[NH+]2CCCCC2)cc1,MIC,-,-,My 331/88,1000 µM
O=C(N/N=C/c1ccc(Oc2ccc(Cl)cc2)cc1)c1nc2ccc([N+](=O)[O-])cc2[nH]1,MIC,-,resazurin,H37Rv,1.75 µg/mL
N/C(=N\NC(=O)c1ccc([N+](=O)[O-])cc1)SCc1cccc(Cl)c1,MIC,-,-,H37Rv,>100 µg/mL
CC(C)CCOc1ccc(N=c2scc(-c3ccccc3)n2-c2ccc(OCCC(C)C)cc2)cc1,MIC,-,-,H37Rv,32 µg/mL
CC(C)CC(NC(=O)OC(C)(C)C)C(=O)NC(Cc1c[nH]c2ccccc12)C(=O)NN,MIC,-,BACTEC,H37Rv,≥12.5 µg/mL
CO[C@H]1/C=C/O[C@@]2(C)Oc3c(C)c(O)c4c(=O)c(c5oc6cc(N7CCN(CC(C)C)CC7)cc(=O)c6nc5c4c3=C2O)NC(=O)/C(C)=C\C=C\[C@H](C)[C@H](O)[C@@H](C)[C@@H](O)[C@@H](C)[C@H](OC(C)=O)[C@@H]1C,MIC,-,-,Kurono,0.004 µg/mL
COc1ccc(Oc2ccc(/C=N/NC(=O)c3nc4ccc([N+](=O)[O-])cc4[nH]3)cc2)cc1,MIC,-,resazurin,H37Rv,6.25 µg/mL
C[C@H]1COc2c(N3CCN(C)CC3)c(F)cc3c(=O)c(C(=O)O)cn1c23,MIC90,-,-,23 strains (rifampicin-resistant),6.25 µg/mL
O=C1OCCOCCOCCOCCOC(=O)c2cncc1c2,inhibition,12.5 µg/mL,BACTEC,H37Rv,-18%
CCOC(=O)c1c(C)c(-c2ccccc2)n(CC(=O)N/N=C/c2cc3ccccc3[nH]2)c1C,inhibition,6.25 µg/mL,BACTEC,H37Rv,6%
CCOc1cccc(NC(=O)OCCC[NH+]2CCCCC2)c1,MIC,-,-,My 331/88,125 µM
CC(=O)C1=C(O)c2c(C)cc(C)nc2S(=O)(=O)N1C,inhibition,12.5 µg/mL,-,H37Rv,37%
COc1ccc(C(=O)N/N=C(\N)SC)cc1,MIC,-,-,H37Rv,>100 µg/mL
N#CC(C#N)C1c2ccccc2Oc2ccccc21,inhibition,12.5 µg/mL,BACTEC,H37Rv,44%
Cc1cccc(OC/C(N)=N\NC(=O)c2ccncc2)c1,MIC,-,-,INH-r,50 µg/mL
CSc1nc(C#N)c(/N=C/N(C)C)n1C,inhibition,12.5 µg/mL,BACTEC,H37Rv,0%
COc1ccc(OC/C(N=Cc2ccncc2)=N\NC(=O)c2ccncc2)cc1,MIC,-,-,INH-r,50 µg/mL

6 of the rows above, restated:

compound,endpoint,dose,read by,strain or isolate,value
O=C1c2ccccc2NC2(C(=O)Nc3ccccc32)N1N1CCOCC1,inhibition,6.25 µg/mL,resazurin,H37Rv,9%
COc1ccc(Oc2ccc(/C=N/NC(=O)c3nc4ccc([N+](=O)[O-])cc4[nH]3)cc2)cc1,MIC,-,resazurin,H37Rv,6.25 µg/mL
C#CCN1C(=O)c2c(C)cc(C)nc2S1(=O)=O,MIC,-,-,H37Rv,>12.5 µg/mL
COc1ccc(C(=O)N/N=C(\N)SC)cc1,MIC,-,-,H37Rv,>100 µg/mL
COc1cccc(NC(=O)OCCC[NH+]2CCCCC2)c1,MIC,-,-,My 331/88,125 µM
CC(C)CCOc1ccc(N=c2scc(-c3ccccc3)n2-c2ccc(OCCC(C)C)cc2)cc1,MIC,-,-,H37Rv,32 µg/mL